Measurements: patent US5858687A (priority 1995, dated 1999)

Key:
[1] = system: human neuroblastoma SK-N-SH; assay: Cell bioassay in human neuroblastoma SK-N-SH cells; conditions: FIG. 8A, 10A
[2] = system: human colon carcinoma HT-29 cells; assay: Cell bioassay in human colon carcinoma HT-29 cells; format: cell-based; conditions: FIG. 12A, 12B

Row | Substance | cytotoxicity in the presence of ouabain and veratridine [1] | response in the presence of ouabain and veratridine [2]
1 | CTX3C | dose-dependant cytotoxicity | 
2 | brevetoxin PbTx-1 | dose-dependant cytotoxicity | 
3 | ciguatoxin |  | lack of response
